A mixed list of measured activities; the numbers were collected in NIAID ChemDB.

All rows: cytotoxicity tests; measure: CC50

An empty or dashed field is not shown. CCn: concentration that lowers growth or viability of the cells by n%. Conditions beyond the fields shown may differ between rows.

SMILES | cells | read by | result
COc1cc(OC[C@H]2CC[C@@H](CO)O2)nc(N)n1 | PC-3 | - | >250 µM
Cc1c(-c2ccc(F)cc2)[nH]c2nc3c(ncn3COCCO)c(=O)n12 | OST TK- | - | 122 µg/mL
CCCC[C@@H](CN[C@H](CN)CCCCNC)NCc1cccc2ccccc12 | J774 | fluorescence | 104.3 µM
CCOC(=O)CCCCCOc1cccc(CN(C(=O)c2ccc(-c3ccc4cc[nH]c4c3)cc2)C(C)C)c1 | HEK 293 | - | >20 µM
CS(=O)(=O)Cc1nsc(C(=O)NC23CC(c4nc(-c5ccc(Cl)cc5)no4)(C2)C3)n1 | Primary human hepatocytes | absorbance | >22.73 µM
C=CCCN(Cc1cc(OC)cc(OC)c1)C(=O)CC(C)=O | HepG2 | - | <7.5 µM
Nc1ccn([C@H]2CC[C@@H](CO)O2)c(=O)n1 | PBLC | - | 43 µg/mL
CCOC(=O)c1cc(O)c(O)c(O)c1 | HT-29 | MTS | >200 µM
Cc1nc2cc(OC(F)(F)F)ccc2n1-c1ccc(C(=O)NC2CC2)s1 | Dermal fibroblast | resazurin | >62 µM
Nc1nc(-c2ccc(NC(=O)CN(Cc3ccccc3)C(=O)c3ccccn3)cc2)cs1 | HS68 | - | >36 µM
CCOC(=O)CC(=O)NCCc1ccc(OC)c(OC)c1 | RAJI | - | <7.5 µM
CN(CCc1ccccn1)C(=O)Nc1ccc(-c2csc(N)n2)cc1 | HS68 | - | <144 µM
CC(C)=C[C@@H](C[C@@H](C)[C@H]1CC[C@@]2(C)[C@@H]3[C@@H](OC(=O)c4ccccc4)C=C4[C@@H](CC[C@H](OC(=O)c5ccccc5)C4(C)C)[C@]3(C)CC[C@]12C)OC(=O)c1ccccc1 | MCF-7 | MTT | >133.3 µM
Nc1cc(OC[C@@H]2O[C@H](CO)[C@@H](O)[C@H]2O)nc(N)n1 | L1210 | - | 175 µM
CS(=O)(=O)C1(c2ccc(C(=O)NC34CC(c5nc(-c6ccc(Cl)c(Cl)c6)cs5)(C3)C4)o2)CC1 | Primary human hepatocytes | absorbance | 16.69 µM
CCCC[C@@H](CN[C@H](CN)CCN)NCc1cccc2ccccc12 | J774 | fluorescence | 101.4 µM
Nc1nc(-c2ccc(NC(=O)CCNCc3cccc(F)c3)cc2)cs1 | HS68 | - | <3.7 µM
CC(C)N(Cc1cccc(OCCCCCC(=O)OC(=O)O)c1)C(=O)c1ccc(-c2cccc(OC(F)(F)F)c2)cc1 | RAJI | - | >20 µM
O=c1c2ncn(COC(CO)CO)c2nc2[nH]c(-c3ccc(F)cc3)cn12 | OST TK-/HSV-1 TK+ | - | 0.0032 µg/mL
C[C@H](c1ccccc1)N1O[C@@]2(CC[C@H](C)N3C[C@H]2n2cc(C(=O)NCc4c(F)cc(F)cc4F)c(=O)c(O)c2C3=O)CC1=O | MT-4 | luminescence | 49.4 µM
Nc1cc(OC[C@H]2CC[C@@H](CO)O2)nc(N)n1 | PC-3 | - | >250 µM
CS(=O)(=O)C1(c2ccc(C(=O)NC34CC(c5ncc(-c6ccc(Cl)cc6)s5)(C3)C4)o2)CC1 | Primary human hepatocytes | absorbance | >47.62 µM
C[C@H]1CC[C@]2(CC(c3ccccn3)=NO2)[C@H]2CN1C(=O)c1c(O)c(=O)c(C(=O)NCc3ccc(F)cc3F)cn12 | MT-4 | luminescence | 50 µM
C=C(C=O)[C@@H]1CC[C@@]2(C)C1C1CCC3[C@@]4(C)CC[C@H](O)C(C)(C)C4CC[C@@]3(C)[C@]1(C)C[C@@H]2O | CEM.NKR-CCR5 | - | >10 µM
CS(=O)(=O)C1(c2ccc(C(=O)NC34CC(c5nc(-c6ccc(Cl)cn6)cs5)(C3)C4)o2)CC1 | Primary human hepatocytes | absorbance | 31.11 µM
O=c1c2ncn(COC(CO)CO)c2nc2[nH]c(-c3ccc(C(F)(F)F)cc3)cn12 | OST TK-/HSV-1 TK+ | - | 0.0086 µg/mL
Nc1nc(-c2ccc(NC(=O)NCc3cccc(F)c3)cc2)cs1 | HS68 | - | <8 µM
C[C@H]1CC[C@@]2(CNC(=O)C2)[C@H]2CN1C(=O)c1c(O)c(=O)c(C(=O)NCc3c(F)cc(F)cc3F)cn12 | MT-4 | luminescence | 50 µM
CC(C)N(Cc1cccc(OCCCCCC(=O)OC(=O)O)c1)C(=O)c1ccc(-c2cccc(F)c2)cc1 | HEK 293 | - | >20 µM
CCCC(CCC)N(CC(=O)Nc1ccc(-c2csc(N)n2)cc1)C(=O)C1CCCCC1 | HS68 | - | >7 µM
CS(=O)(=O)C1(c2nsc(C(=O)NC34CC(c5nc(-c6cccc(Cl)c6)cs5)(C3)C4)n2)CC1 | Primary human hepatocytes | absorbance | 29.65 µM
CN(C)c1ccc(CNC(=O)Nc2ccc(-c3csc(N)n3)cc2)cc1 | HS68 | - | <18 µM
O=c1c2ncn(COCCO)c2nc2[nH]c(-c3ccc(C(F)(F)F)cc3)cn12 | OST TK- | - | 368 µg/mL
C[C@H]1CC[C@]2(CC(=O)N(Cc3nc4ccccc4[nH]3)O2)[C@H]2CN1C(=O)c1c(O)c(=O)c(C(=O)NCc3c(F)cc(F)cc3F)cn12 | MT-4 | luminescence | 50 µM
CC(C)(C)CC(=O)N[C@@H](Cc1ccccc1)C(=O)Nc1ccc(-c2csc(N)n2)cc1 | HS68 | - | <21 µM
COc1cc(OC[C@H]2CC[C@@H](COCc3ccccc3)O2)nc(N)n1 | CAKI-1 | - | 107 µM
CS(=O)(=O)C1(c2cccc(C(=O)NC34CC(c5nc(-c6ccc(Cl)cc6)no5)(C3)C4)n2)CC1 | Primary human hepatocytes | absorbance | 8.32 µM
COc1cc(OC[C@H]2CC[C@@H](COCc3ccccc3)O2)ncn1 | L1210 | - | 83 µM
CCN1C[C@@]2(CC[C@H](C)N3C[C@H]2n2cc(C(=O)NCc4c(F)cc(F)cc4F)c(=O)c(O)c2C3=O)OC1=O | MT-4 | luminescence | 50 µM
Nc1ccnc(OC[C@H]2CC[C@@H](COCc3ccccc3)O2)n1 | CAKI-1 | - | ≥250 µM
Nc1nc(-c2ccc(NC(=O)C(=O)N(Cc3ccccc3)Cc3ccccc3)cc2)cs1 | HS68 | - | <12 µM
CCCN(Cc1ccc(OCC(=O)O)cc1)C(=O)c1ccc(-c2ccc3c(c2)OCO3)cc1 | RAJI | - | >20 µM
Nc1cc(OC[C@H]2CC[C@@H](CO)O2)ncn1 | PC-3 | - | >250 µM

A second listing of 6 rows from above:

SMILES | cells | read by | result
CCCC[C@@H](CN[C@H](CN)CCCCNC)NCc1cccc2ccccc12 | J774 | fluorescence | 104.3 µM
CS(=O)(=O)C1(c2ccc(C(=O)NC34CC(c5nc(-c6ccc(Cl)cn6)cs5)(C3)C4)o2)CC1 | Primary human hepatocytes | absorbance | 31.11 µM
CN(C)c1ccc(CNC(=O)Nc2ccc(-c3csc(N)n3)cc2)cc1 | HS68 | - | <18 µM
COc1cc(OC[C@H]2CC[C@@H](COCc3ccccc3)O2)ncn1 | L1210 | - | 83 µM
Nc1nc(-c2ccc(NC(=O)C(=O)N(Cc3ccccc3)Cc3ccccc3)cc2)cs1 | HS68 | - | <12 µM
COc1cc(OC[C@H]2CC[C@@H](COCc3ccccc3)O2)nc(N)n1 | CAKI-1 | - | 107 µM